In article PMC9235892 (Virulence, 2022):

Columns and labels:
[1] = test system: SARS-CoV-2 B (PANGO lineage); assay: Resistant variant selection by serial passage in Vero CCL81; settings: eight passages, 3, 10 then 32 µM
SARS-CoV-2 = settings: from CC50 and EC50, Vero CCL81

SMILES | acquisition of resistance by virus passaged in presence of compound [1] | selectivity index (SI) (SARS-CoV-2)
CN1CCN(C[C@@H](O)CO[C@H]2CC[C@@]3(C)C(CCC4C3CC[C@]3(C)C(=O)CCC43)C2)CC1 (stereo partly drawn) [LNB169] | acquired resistance to the compound | 
CN1CCN(C[C@H](O)CO[C@H]2CC[C@@]3(C)C(CCC4C3CC[C@]3(C)C(=O)CCC43)C2)CC1 (stereo partly drawn) [LNB167] | had not acquired resistance | 154
